Pooled drug test results. Numbers come from NIAID ChemDB, via PubChem.

Shared fields: toxicity to cultured cells; endpoint: CC50

Blank or dashed fields: not listed here. CCn is the concentration with n% toxicity to the cells. Neighbouring rows are from separate reports.

structure | method | cells | result
O=C(NCc1ccc(Cl)cc1)c1cn2c3c(cc(CN4CCOCC4)cc3c1=O)OC(c1cccnc1)C2 | MTS | HSB-2 | >18.8 µM
C[C@H]1[C@H](O)[C@@H](CO)O[C@H]1n1cc(F)c(N)nc1=O | - | RPMI8226 | 66.9 µg/mL
CCc1nc2ccc(C)cc2n1CCCNc1ccc(C)cc1 | luminescence | VERO | 31 µM
CC(=O)Nc1cc(O)c(C(=O)O)cc1F | resazurin | L6 rat myoblasts | 173 µM
COc1cc2c(cc1[C@H](C)N(C)c1ccccc1)C=CC(C)(C)O2 | - | L6 rat skeletal myoblasts | 45.4 µM
C=C(C)C1CC[C@]2(C(=O)O)CC[C@]3(C)C(CCC4[C@@]5(C)C[C@@H](OC(C)=O)[C@H](O)C(C)(C)C5CC[C@]43C)C12 | XTT | 1A2 | 15.9 µg/mL
CC[C@@H]1CN2CC[C@]34c5ccccc5N5[C@H]6C7O[C@@]53[C@@H](C[C@@]6(O)OC7CO)[C@H]1C[C@H]24 | MTT | HL-60 | >50 µM
OC/C(=C/Cn1cnc2c(Cl)ncnc21)c1ccccc1 | - | CCL18 | >100 µg/mL
N#Cc1nc2c(-c3nc4ccccc4[nH]3)c(N)n(CC(F)(F)C(F)(F)C(F)(F)F)c2nc1C#N | resazurin / fluorescence | L6 rat skeletal myoblasts | 42 µM
C[C@H]1[C@H](O)[C@@H](CO)O[C@H]1n1cc(Cl)c(N)nc1=O | - | RPMI8226 | >100 µg/mL
Nc1nc2c(ncn2COCCO)c(=O)[nH]1 | - | P3HR-1 | 250 µM
OCC(=CCn1cnc2c(Cl)ncnc21)CO | - | CCL18 | >100 µg/mL
COc1cc([C@@H]2c3cc4c(cc3[C@H](O)[C@H]3COC(=O)[C@H]23)OCO4)cc(OC)c1OC | - | L6 rat skeletal myoblasts | 0.01 µM
COc1ccc(CCn2c(N)c(-c3nc4ccccc4[nH]3)c3nc(C#N)c(C#N)nc32)cc1OC | resazurin / fluorescence | L6 rat skeletal myoblasts | 148 µM
C=CC[C@H](NC(C)=O)C(=O)N1CCC[C@@H]1c1ncc(-c2ccc(-c3ccccc3)cc2)[nH]1 | - | PBM | >100 µM
COc1cc2c(cc1[C@H](C)Nc1ccccc1)C=CC(C)(C)O2 | - | L6 rat skeletal myoblasts | 16.2 µM
CC1=CC2C(=O)c3cc(OC/C(C)=N/O)cc(O)c3C(=O)C2C(O)=C1 | - | K562 erythroleukemia cells | 33 µM
C[C@H]1[C@H](O)[C@@H](CO)O[C@H]1n1cc(Br)c(=O)[nH]c1=O | - | RPMI8226 | 60.4 µg/mL
N#Cc1nc2c(-c3nc4ccccc4[nH]3)c(N)n(CCc3ccccc3F)c2nc1C#N | resazurin / fluorescence | L6 rat skeletal myoblasts | 80 µM
O=C(CCC(CCC(=O)NCCc1c[nH]c2ccccc12)(CCC(=O)NCCc1c[nH]c2ccccc12)NC(=O)CCOCC(COCCC(=O)NC(CCC(=O)NCCc1c[nH]c2ccccc12)(CCC(=O)NCCc1c[nH]c2ccccc12)CCC(=O)NCCc1c[nH]c2ccccc12)(COCCC(=O)NC(CCC(=O)NCCc1c[nH]c2ccccc12)(CCC(=O)NCCc1c[nH]c2ccccc12)CCC(=O)NCCc1c[nH]c2ccccc12)COCCC(=O)NC(CCC(=O)NCCc1c[nH]c2ccccc12)(CCC(=O)NCCc1c[nH]c2ccccc12)CCC(=O)NCCc1c[nH]c2ccccc12)NCCc1c[nH]c2ccccc12 | MTS | CD4+ T-cell | >100 µM
C[C@]1(Cn2cc(COc3ccc(C(F)(F)F)cc3)nn2)Cn2cc([N+](=O)[O-])nc2O1 | MTT | J774 | >40 µg/mL
C[C@H](Cc1ccc(OCCN2CCOCC2)c(OCCN2CCOCC2)c1)[C@@H](C)Cc1ccc(OCCN2CCOCC2)c(OCCN2CCOCC2)c1 | - | COS | 19.71 µM
N#Cc1nc2c(-c3nc4ccccc4[nH]3)c(N)n(Cc3cccc(C(F)(F)F)c3)c2nc1C#N | resazurin / fluorescence | L6 rat skeletal myoblasts | 13 µM
CC(=O)COc1cc(OC(C)=O)c2c(c1)C(=O)C1C=C(C)C=C(OC(C)=O)C1C2=O | - | K562 erythroleukemia cells | 59 µM
Cc1ccc(SCc2cn(C[C@@]3(C)Cn4cc([N+](=O)[O-])nc4O3)nn2)cc1 | MTT | J774 | >40 µg/mL
COc1cc2[nH]c3ccccc3c2cc1C=O | tetrazolium | 1A2 | 680 µM
COC(=O)N[C@@H]1[C@H](C)O[C@@H](OC2C/C=C(\C)[C@H]3C=C[C@H]4[C@H](OC5C[C@@H](OC6C[C@@H](O)[C@@H](OC7C[C@@H](O)[C@@H](OC)[C@H](C)O7)[C@H](C)O6)[C@@H](O)[C@H](C)O5)[C@H](C)C[C@@H](C)[C@@H]4[C@@]3(C)/C(O)=C3/C(=O)OC4(C[C@H](C)C(C=O)=C[C@H]4/C=C\2C)C3=O)C[C@@]1(C)[N+](=O)[O-] | MTT | CEM-TART lymphoblastoid cells | 8.6 µM
Nc1nc2c(ncn2C[C@H]2CO[C@H](P(=O)(O)O)O2)c(=O)[nH]1 | - | FLOW 2002 | >100 µg/mL
CCOC(=O)C1=C(CN2CCOCC2)NC(C2=NC=CC2)=NC1c1ccc(F)cc1Br | MTT | HepAD38 | 26 µM
CC1(C)C(=O)C=C[C@]2(C)[C@@H]1CC[C@@]13CC[C@@H](C[C@H]12)[C@](O)(CO)C3 | MTT | HepG2/ADR | >100 µM
O=C(N/N=C/c1cccc(O)c1O)Nc1cccc2nsnc12 | luminescence | Cf2Th-CD4/CCR5 | 50.5 µM
C[C@]1(Cn2cc(COc3ccc(Br)cc3)nn2)Cn2cc([N+](=O)[O-])nc2O1 | MTT | J774 | >40 µg/mL
N#Cc1nc2c(-c3nc4ccccc4[nH]3)c(N)n(CC(O)c3ccccc3)c2nc1C#N | resazurin / fluorescence | L6 rat skeletal myoblasts | 16 µM
COc1cc([C@@H]2c3cc4c(cc3[C@@H](O[C@@H]3O[C@@H]5CO[C@@H](C)O[C@H]5[C@H](O)[C@H]3O)[C@H]3COC(=O)[C@H]23)OCO4)cc(OC)c1O | resazurin | WS1 Cell Line | 18.5 µg/mL
Nc1ncnc2c1ncn2C1CC(CO)C1 | - | ATH8 | 50 µM
Cc1ccc(S(=O)(=O)NC(N)=NCCC[C@H](NC(=O)OCc2cccnc2)C(=O)N[C@H](C(=O)N[C@H](C=O)Cc2ccccc2)C(C)(C)C)cc1 | - | HELF | 36 µM
C/C(=C\Cn1cnc2c(N)ncnc21)CO | - | CCL18 | >100 µg/mL
CCOC(=O)CCCCCOc1cccc(CN(C(=O)c2ccc(-c3cccc4ccccc34)cc2)C(C)C)c1 | - | HEK 293 | >20 µM
O=C(N/N=C/c1ccc(O)cc1)Nc1cccc2nsnc12 | luminescence | Cf2Th-CD4/CCR5 | 56.5 µM
Nc1nc(=O)n([C@@H]2O[C@H](CO)[C@@H](O)[C@@H]2F)cc1I | - | RPMI8226 | 10.51 µg/mL
C=C(C)[C@@H]1CC[C@]2(C(=O)O)CC[C@]3(C)[C@H](CC[C@@H]4[C@@]5(C)CC[C@H](O)C(C)(C)[C@@H]5CC[C@]43C)[C@@H]12 | XTT | 1A2 | 27.2 µg/mL
N#Cc1nc2c(-c3nc4ccccc4[nH]3)c(N)n(CCc3ccc(N)cc3)c2nc1C#N | resazurin / fluorescence | L6 rat skeletal myoblasts | 158 µM
C[C@H]1[C@H](O)[C@@H](CO)O[C@H]1n1cc(Cl)c(=O)[nH]c1=O | - | RPMI8226 | 47.4 µg/mL
C=CCCCC(=O)NCC(c1ccc2c(c1)OCO2)C1OCCO1 | - | HEK 293 | <7.5 µM
O=c1[nH]c(=O)n([C@H]2C[C@H](O)[C@@H](CO)O2)cc1/C=C/Br | - | P3HR-1 | 390 µM
Cc1ccc(OCc2cn(C[C@@]3(C)Cn4cc([N+](=O)[O-])nc4O3)nn2)cc1 | MTT | J774 | >40 µg/mL
CC[C@@H]1CN2CC[C@@]34C5=C(C[C@]6(CN5c5ccccc53)C3=Nc5ccccc5[C@@]35CC[N+]3([O-])C[C@@H](CC)[C@@H]6C[C@@H]53)[C@H]1C[C@H]24 | MTT | HL-60 | 22.33 µM
COc1cc2c(cc1C(C)Nc1ccccc1)C=CC(C)(C)O2 | - | L6 rat skeletal myoblasts | 21 µM
C/C(=C\Cn1cnc2c(Cl)ncnc21)CO | - | CCL18 | >100 µg/mL
O=C(N/N=C/c1ccc(O)c(O)c1)Nc1cccc2nsnc12 | luminescence | Cf2Th-CD4/CCR5 | 56.3 µM
Nc1nc2c(ncn2C[C@H]2CC[C@@H](P(=O)(O)O)O2)c(=O)[nH]1 | - | FLOW 2002 | >100 µg/mL
COc1ccc(/C=N/NC(=O)Nc2cccc3nsnc23)c(O)c1 | luminescence | Cf2Th-CD4/CCR5 | >112 µM
Cc1cn([C@@H]2O[C@H](CO)[C@@H](O)[C@@H]2F)c(=O)[nH]c1=O | - | P3HR-1 | 1 µM
O=C(N/N=C/c1ccc(O)c(Br)c1)Nc1cccc2nsnc12 | luminescence | Cf2Th-CD4/CCR5 | >112 µM
CC(=O)NC[C@H]1CN(c2ccc(N3CCN(C4=NS(=O)(=O)c5ccccc5N4C)CC3)c(F)c2)C(=O)O1 | MTT | Human foreskin fibroblasts | >100 µg/mL
C[C@H](Cc1ccc2oc(=O)oc2c1)[C@@H](C)Cc1ccc2oc(=O)oc2c1 | - | COS | 9.84 µM
C[C@]1(Cn2cc(-c3ccc(F)cc3F)nn2)Cn2cc([N+](=O)[O-])nc2O1 | MTT | J774 | >40 µg/mL
Cn1cc(C(=O)NCc2ccc(Cl)cc2)c(=O)c2c1SC(CN1CCOCC1)C2 | MTS | DAUDI | >116 µM
Cc1c[nH]c(=O)n(C[C@H]2CS[C@H](P(=O)(O)O)O2)c1=O | - | FLOW 2002 | >100 µg/mL
C[C@@H](Nc1ccccc1)c1cc2c(cc1O)OC(C)(C)C=C2 | - | L6 rat skeletal myoblasts | 18.8 µM
CCc1nc2ccccc2n1CCCCSc1ccc2ccccc2c1 | luminescence | VERO | 10 µM
COC(=O)N[C@@H]1[C@H](C)O[C@@H](OC2C/C=C(\C)[C@H]3C=C[C@H]4[C@H](OC5C[C@@H](O[C@@H]6C[C@@H](O)[C@@H](O)[C@H](C)O6)[C@@H](O)[C@H](C)O5)[C@H](C)C[C@@H](C)[C@@H]4[C@@]3(C)/C(O)=C3/C(=O)OC4(C[C@H](C)C(C)=C[C@H]4/C=C\2C)C3=O)C[C@@]1(C)[N+](=O)[O-] | MTT | CEM-TART lymphoblastoid cells | 1.7 µM
COc1ccc2nc3n[nH]c(C)c3c(SCc3ccco3)c2c1 | - | WI-38 | >100 µg/mL
COS(=O)(=O)[O-].Cn1c(-c2cn(C)c3ccccc23)c[n+](C)c1-c1cn(C)c2cc(Br)ccc12 | - | P-388 | 0.9 µg/mL
COc1ccc2ccc3c(c2c1)OC1(CCN(Cc2ccc(C#N)cc2)CC1)NC3=O | MTT | MOLT-4 | 1300 µM
C[C@]1(Cn2cc(CN3CCOCC3)nn2)Cn2cc([N+](=O)[O-])nc2O1 | MTT | J774 | >40 µg/mL
COc1cc2c(cc1OC)C(CC1(C)OCCO1)=NCC2 | - | RAJI | <7.5 µM
Nc1ncnc2c1ncn2C/C=C(/CO)c1ccccc1 | - | CCL18 | >100 µg/mL
CCN1C(N2CCN(c3ccc(N4C[C@H](CNC(C)=O)OC4=O)cc3F)CC2)=NS(=O)(=O)c2ccccc21 | MTT | Human foreskin fibroblasts | >50 µg/mL
CCc1nc2ccccc2n1CCCSc1ccc(C)cc1 | luminescence | VERO | 24 µM
CCOC(=O)COc1ccc(CO)cc1 | - | HEK 293 | >20 µM
Nc1nc2c(ncn2CC=C(CO)CO)c(=O)[nH]1 | - | CCL18 | >100 µg/mL
CC1(C)[C@H]2CC[C@@]34CC[C@@H](C[C@H]3[C@]2(C)CC[C@@H]1O)C([C@@H](O)CO)C4 | MTT | HepG2/ADR | 15.57 µM
Nc1nc2c(ncn2C[C@@H]2CC[C@H](P(=O)(O)O)O2)c(=O)[nH]1 | - | FLOW 2002 | >100 µg/mL
C[C@]1(Cn2cc(-c3ccc(F)cc3)nn2)Cn2cc([N+](=O)[O-])nc2O1 | MTT | J774 | >40 µg/mL
O=C(c1ncc(-c2c[nH]c3ccccc23)[nH]1)c1c[nH]c2cc(O)ccc12 | - | P-388 | 2 µg/mL

6 of the rows above, restated:

structure,method,cells,result
CC[C@@H]1CN2CC[C@@]34C5=C(C[C@]6(CN5c5ccccc53)C3=Nc5ccccc5[C@@]35CC[N+]3([O-])C[C@@H](CC)[C@@H]6C[C@@H]53)[C@H]1C[C@H]24,MTT,HL-60,22.33 µM
C[C@]1(Cn2cc(-c3ccc(F)cc3)nn2)Cn2cc([N+](=O)[O-])nc2O1,MTT,J774,>40 µg/mL
COC(=O)N[C@@H]1[C@H](C)O[C@@H](OC2C/C=C(\C)[C@H]3C=C[C@H]4[C@H](OC5C[C@@H](OC6C[C@@H](O)[C@@H](OC7C[C@@H](O)[C@@H](OC)[C@H](C)O7)[C@H](C)O6)[C@@H](O)[C@H](C)O5)[C@H](C)C[C@@H](C)[C@@H]4[C@@]3(C)/C(O)=C3/C(=O)OC4(C[C@H](C)C(C=O)=C[C@H]4/C=C\2C)C3=O)C[C@@]1(C)[N+](=O)[O-],MTT,CEM-TART lymphoblastoid cells,8.6 µM
O=C(N/N=C/c1ccc(O)cc1)Nc1cccc2nsnc12,luminescence,Cf2Th-CD4/CCR5,56.5 µM
Nc1ncnc2c1ncn2C/C=C(/CO)c1ccccc1,-,CCL18,>100 µg/mL
C[C@H]1[C@H](O)[C@@H](CO)O[C@H]1n1cc(Cl)c(N)nc1=O,-,RPMI8226,>100 µg/mL